Measurements published in PubChem BioAssay AID603 (National Center for Advancing Translational Sciences (NCATS), 2007).
Only a part is listed here, and it is no random draw. Active and inactive are the calls of the source. Calls come from the whole dose curve; as a rule, active = well fitted curve in the direction sought with a large enough effect; inconclusive = small, poorly fitted or top-dose-only effect; inactive = flat fitted curve, though single readings scatter.

Tested on: DNA polymerase III holoenzyme (E. coli)
Assay: qHTS Assay for Inhibitors of DNA Polymerase III Holoenzyme System
Conditions: reconstituted DNA polymerase III holoenzyme replication, biochemical; at 57.1 µM (top of the series) unless noted
Description: NIH Molecular Libraries Screening Centers Network [MLSCN]
NIH Chemical Genomics Center [NCGC]
Assay Provider: Charles McHenry, University of Colorado
E. coli DNA polymerase III holoenzyme complex was assayed for DNA production by fluorescent detection of the double-stranded DNA product with PicoGreen dye. The holoenzyme complex was reconstituted from the following purified protein components: DNA Polymerase III, beta subunit processivity factor, SSB single-stranded DNA binding protein, and Primase. Single-stranded, circular M13Gori was used as a substrate with dNTPs and NTPs also supplied to the substrate reagent. Compounds from the NCGC collection were incubated with the holoenzyme mixture for 15 min at room temperature to allow binding to occur, and then the reaction was started by the addition of substrate. After 30 min incubation at room temperature, PicoGreen solution containing EDTA was added to stop the reaction and to visualize the double-stranded DNA produced. Reaction progress was measured in a ViewLux CCD imager in fluorescence intensity mode by using 480 nm excitation and 540 nm emission filter set.
NCGC Assay Protocol Summary:
Buffer. 50 mM Hepes-KOH, pH 7.5, 5 % Glycerol, 0.02% NP40, 30 mM potassium;
glutamate, 1.5 mM Magnesium Acetate, 16 uM TCEP.
Buffer in columns 3 and 4 as negative control (no enzyme).
Substrate solution: 5 uM each dATP, dGTP, dCTP and TTP, 50 uM each GTP, CTP, UTP and 200 uM ATP, 1.4 nM M13gori (final concentrations).
Enzyme: 154 nM SSB, 2 nM Primase, 1 nM Beta, 0.35 nM Pol III (final concentrations).
PicoGreen/EDTA: 10 mM Tris-HCl, 10 mM EDTA, 5 uM PicoGreen (final concentrations).
Control titration: ChemBridge 5805060 (from 10 mM, then 1:2, in duplicate) was pin-transferred to upper half of column 2.
Three uL of holoenzyme mixture were dispensed to 1536-well Greiner black solid bottom plates. Compounds and controls (23 nL) were transferred via Kalypsys PinTool. The plates were incubated for 15 min at room temperature, and then 1 uL of substrate solution was added to start the reaction. After room temperature incubation for 35 minutes, 1 uL of PicoGreen solution was added to each well and the plates were read 480 nm excitation and 540 nm emission using ViewLux (Perkin-Elmer) High-throughput CCD imager and fluorescence protocol settings.
Keywords: NIH Roadmap, MLSCN, MLI, MLSMR, qHTS, NCGC, DNA Polymerase III, DNAPol3, DNAPoly3, DNA replication targets
% is set by controls: 0 for no effect and ±100 for the full control effect.

Q: Which activity change, negative = inhibition does the source give for `N/C(=N\O)c1c(N)no[n+]1[O-]` here?
A: inactive: -4.2%

Q: For `ClCCOP(OCCCl)OCCCl`, which activity change, negative = inhibition is on record?
A: inactive: -4.1%

Q: Which activity change, negative = inhibition does the source give for `Fc1ccccc1NC1CCN(Cc2ccccc2)CC1` here?
A: inactive: -4.6%

Q: Which activity change, negative = inhibition does the source give for `CCC(CO)(C(=O)OC1CN2CCC1CC2)c1ccccc1` (stereo not given) here?
A: inactive: 0.7%

Q: For `CCOc1ncccc1C(=O)NCC1(N2CCOCC2)CCCCC1`, which activity change, negative = inhibition is on record?
A: inactive: -6%

Q: For `O=C(O)C1(Nc2ccccc2)CCN(Cc2ccccc2)CC1`, which activity change, negative = inhibition is on record?
A: inactive: 1.5% [at 11.4 µM]

Q: Which activity change, negative = inhibition does the source give for `O=C(OC1CN2CCC1CC2)C1c2ccccc2Oc2ccccc21` (stereo not given) here?
A: inactive: -1.1%

Q: How did the activity change, negative = inhibition turn out when `N#CC1(Nc2ccccc2)CCN(CCc2ccccc2)CC1` was run?
A: inactive: 1.4%

Q: How did the activity change, negative = inhibition turn out when `NC1CCCCC1.NP(=O)(O)N(CCCl)CCCl` was run?
A: inactive: -16.3% [at 11.4 µM]

Q: For `CCOP(=O)(Cl)Cl`, which activity change, negative = inhibition is on record?
A: inactive: 5.6%
